# Laboratory results from article PMC11143371, “Universal paramyxovirus vaccine design by stabilizing regions involved in structural transformation of the fusion protein” (2024).
# System: NiV F ectodomain without GCN4, S470V + A477V, Nipah virus, Q9IH63 27-497
# Test: SEC
substance,measurement,value
"NiV F ectodomain without GCN4, S470V + A477V S470V | A477V",stoichiometry N,3
